# Potato spindle tuber viroid, loop 1: variant abundance in plants

From the data files of Wu et al. 2024, doi:10.1371/journal.ppat.1012142.

PSTVd intermediate strain, loop 1: wild type CCUCGG, pool pattern CNNNNG; 5' to 3', with the closing base pair.

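Three N. benthamiana plants were inoculated with the whole mutant pool. Progeny were sequenced from the inoculated region (day 5), the margin of the inoculated leaf (day 10) and systemic leaves (day 12).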

Values are reads per thousand in the sample; higher means more abundant, 0 means not found. Each value is the mean of three plants. "Pool" is the share in the plasmid pool used as inoculum, on the same scale. The inoculated region was read from the minus strand, the other sites from the plus strand. IR is the inoculated region, LM the leaf margin, Sys the systemic leaves. Wild type was 20.1 per thousand in the pool and the most common sequence in every sample (inoculated region 197, 219, 222; leaf margin 828, 823, 779; systemic leaves 914, 907, 857). Samples held 32,791 to 60,834 reads, so the smallest values rest on one or two reads. Sequences that differ at fixed positions probably stem from PCR or sequencing errors, and defective variants can be carried along by functional ones.

- CGUAUG (pool 3.19) -> IR 2.68; LM 0; Sys 0
- CGAAAG (pool 3.77) -> IR 2.74; LM 0.00663; Sys 0
- CCCUGG (pool 3.17) -> IR 2.94; LM 0; Sys 0
- CCGGUG (pool 3.47) -> IR 2.66; LM 0.00704; Sys 0
- CGCUGG (pool 3.94) -> IR 2.86; LM 0.00704; Sys 0
- CGCGUG (pool 4.41) -> IR 2.88; LM 0.0203; Sys 0.0110
- CUGACG (pool 3.26) -> IR 2.75; LM 0.00663; Sys 0
- CUUGUG (pool 4.69) -> IR 2.94; LM 0.00663; Sys 0.0115
- CUGGGG (pool 5.10) -> IR 2.99; LM 0; Sys 0.0389
- CCCUUG (pool 4.02) -> IR 2.80; LM 0; Sys 0.00548
- CAAAAG (pool 3.26) -> IR 2.58; LM 2.13; Sys 0.849
- CCUGUG (pool 3.18) -> IR 2.73; LM 0.0172; Sys 0.0128
- CGGGUG (pool 3.74) -> IR 2.84; LM 0.0102; Sys 0.00548
- CGCAGG (pool 3.49) -> IR 2.78; LM 0.0242; Sys 0
- CCAGUG (pool 3.42) -> IR 2.59; LM 1.24; Sys 0.351
- CAGCUG (pool 4.69) -> IR 3.14; LM 0.00663; Sys 0.0164
- CGAGAG (pool 3.31) -> IR 2.68; LM 0; Sys 0
- CUACGG (pool 3.22) -> IR 2.51; LM 0.0168; Sys 0
- CGCACG (pool 3.56) -> IR 2.74; LM 0.00704; Sys 0.00599
- UCUCGG (pool 0.0920) -> IR 0.0673; LM 0.0777; Sys 0.0747
- CUACCG (pool 3.53) -> IR 2.55; LM 0.00663; Sys 0
- CUAAAG (pool 4.18) -> IR 2.82; LM 0.0172; Sys 0.0164
- CAGAAG (pool 3.47) -> IR 2.93; LM 0; Sys 0
- AUCCGG (pool 0.0131) -> IR 0; LM 1.26; Sys 0.405
- CAGAUG (pool 4.20) -> IR 2.88; LM 0.0102; Sys 0

Excerpt, the final 3 entries:

| sequence | pool | IR | LM | Sys |
|---|---|---|---|---|
| CAGAAG | 3.47 | 2.93 | 0 | 0 |
| AUCCGG | 0.0131 | 0 | 1.26 | 0.405 |
| CAGAUG | 4.20 | 2.88 | 0.0102 | 0 |